From publication PMC10525570, “Antiviral Activity of Anthranilamide Peptidomimetics against Herpes Simplex Virus 1 and a Coronavirus” (Antibiotics, 2023) come the findings set out here.

One data set deals with HSV-1. Briefly: Virus pre-treatment (direct virus inactivation) plaque assay, HSV-1. The format is cell-based, herpes simplex virus 1. As to conditions: ratio of CC50 (Vero cells) to IC50 (HSV-1). The method, then:
(§1) The peptidomimetics were evaluated for their antiviral activity using three different assays: virus pre-treatment, cell pre-treatment, and post-treatment assays, with the main distinction being the timing of the compound addition. Cells were seeded in 24-well plates at a density of 2.5 × 10^5 cells/well and incubated for 48 h at 37 °C. In all assays, the compounds were added to DMEM medium in the absence of fetal bovine serum (FBS). All experiments were performed in duplicate with two independent replicates. The inhibitory effect on viral infectivity was determined by comparing the number of plaques in wells treated with the test compounds (peptidomimetics) to the plaques observed in the control wells (cells infected with the virus without test compounds).
(§2) Virus pre-treatment assay: In this assay, the test compounds were added to the virus (1 × 10^3 PFU/mL) and incubated for 3 h at 37 °C. After incubation, each mixture (virus/peptide) was diluted in DMEM medium containing 10% FBS to neutralize the peptides or mimics. The dilutions were then added to the cell monolayers for 1 h, followed by the addition of an agar overlay containing 1% agar. The cells were further incubated for 72 h, after which they were fixed, stained, and the number of plaques was counted.

For a further data set, the system named is MHV-1. The data set can be described thus: Virus pre-treatment (direct virus inactivation) plaque assay, MHV-1. The format is cell-based, Murine hepatitis virus 1. As to conditions: ratio of CC50 (A9 cells) to IC50 (MHV-1). The method, then: as §1, §2

The structures appear in SMILES notation.

Regarding `N=C(N)NCCNC(=O)C(Cc1c[nH]c2ccccc12)NC(=O)c1cc(Br)ccc1NC(=O)c1ccc2ccccc2c1` (stereo not drawn) [Compound 7], the “HSV-1 (Vero Cells) Therapeutic Index” value with HSV-1 turned out to be 3.87.
With `NCCCCC(N)C(=O)NCCNC(=O)C(Cc1c[nH]c2ccccc12)NC(=O)c1cc(Br)ccc1NC(=O)c1ccc2ccccc2c1` (stereo not drawn) [Compound 15], in the data set on MHV-1, the “MHV-1 (A9 Cells) Therapeutic Index” value was found to be 5.65.
As for `NCCCCC(N)C(=O)NCCNC(=O)C(Cc1c[nH]c2ccccc12)NC(=O)c1cc(Br)ccc1NC(=O)c1cccc(-c2ccccc2)c1` (stereo not drawn) [Compound 17], the “MHV-1 (A9 Cells) Therapeutic Index” value in the data set on MHV-1 came to 9.71.
Take `NCCNC(=O)C(Cc1c[nH]c2ccccc12)NC(=O)c1cc(-c2ccc3ccccc3c2)ccc1N` (stereo not drawn) [Compound 11]: the “MHV-1 (A9 Cells) Therapeutic Index” value in the data set with MHV-1 is given as 9.41. Also, the “HSV-1 (Vero Cells) Therapeutic Index” value in the data set on HSV-1 was found to be 0.48.
In the case of `NCCNC(=O)C(Cc1c[nH]c2ccccc12)NC(=O)c1cc(-c2ccccc2-c2ccccc2)ccc1N` (stereo not drawn) [Compound 14], in the data set with MHV-1, the “MHV-1 (A9 Cells) Therapeutic Index” value is on record as 1.6. Besides, in the data set on HSV-1, the “HSV-1 (Vero Cells) Therapeutic Index” value is reported as 1.16.
For the compound `N=C(N)NCCNC(=O)C(Cc1c[nH]c2ccccc12)NC(=O)c1cc(Cl)ccc1NC(=O)c1ccc2ccccc2c1` (stereo not drawn) [Compound 9], the “HSV-1 (Vero Cells) Therapeutic Index” value in the data set on HSV-1 worked out at 3.03.
On to `NCCCCC(N)C(=O)NCCNC(=O)C(Cc1c[nH]c2ccccc12)NC(=O)c1cc(Br)ccc1NC(=O)c1ccc(-c2ccccc2)cc1` (stereo not drawn) [Compound 16], for which the “MHV-1 (A9 Cells) Therapeutic Index” value with MHV-1 was determined as 3.62.
